Tests used:
Test in all cases: purified protein
Settings in all cases: pH 8.0; 37.0 °C
[1] = system: Nc1nc2c(ncn2[C@@H]2O[C@H](COP(=O)(O)OP(=O)(O)O)[C@@H](O)[C@H]2O)c(=O)[nH]1
[2] = system: Nc1nc2c(ncn2[C@@H]2O[C@H](COP(=O)(O)OP(=O)(O)OP(=O)(O)O)[C@@H](O)[C@H]2O)c(=O)[nH]1
[3] = system: Nc1ncnc2c1ncn2[C@@H]1O[C@H](COP(=O)(O)OP(=O)(O)O)[C@@H](O)[C@H]1O
[4] = system: Nc1ncnc2c1ncn2[C@@H]1O[C@H](COP(=O)(O)OP(=O)(O)OP(=O)(O)O)[C@@H](O)[C@H]1O

In the case of “FtPPK2 (Francisella tularensis subsp. tularensis SCHU S4)”, the Km [1] is reported as 727 ± 138 µM, the kcat/Km [1] is reported as 5080 M⁻¹ s⁻¹ and the Km [2] is reported as 692 ± 235 µM. The kcat/Km [2] was 4000 M⁻¹ s⁻¹, the Km [3] was 546 ± 79.2 µM and the kcat/Km [3] was 5790 M⁻¹ s⁻¹. It also gave a Km [4] of 372 ± 90.5 µM and a kcat/Km [4] of 3920 M⁻¹ s⁻¹.
